The exact form of at least one protein or probe is not confirmed. Weaker means in comparison with the reference protein, sequence or condition of that experiment. Protein sequences can lack the tags named with them.
How the values were obtained:
P37 (Trypanosoma brucei) = target: T1, P37 (Trypanosoma brucei) (UniProt O15759); assay: competition with a labelled probe; conditions: needs about 10x more than LoopA/StemV; recombinant protein; protein details: His (pQE-1); label: unlabeled competitor
T1 sequence (looked up, limits assumed): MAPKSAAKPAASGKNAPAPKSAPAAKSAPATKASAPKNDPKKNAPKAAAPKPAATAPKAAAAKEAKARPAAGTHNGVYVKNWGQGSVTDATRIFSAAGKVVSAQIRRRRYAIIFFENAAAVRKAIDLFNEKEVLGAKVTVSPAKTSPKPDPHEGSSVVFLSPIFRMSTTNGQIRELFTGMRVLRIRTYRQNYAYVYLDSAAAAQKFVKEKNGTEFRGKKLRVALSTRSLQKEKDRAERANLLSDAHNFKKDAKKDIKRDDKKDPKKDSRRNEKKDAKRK

P34 (Trypanosoma brucei) = target: T2, P34 (Trypanosoma brucei) (UniProt O15758); assay: competition with a labelled probe; conditions: needs about 10x more than LoopA/StemV; recombinant protein; protein details: His (pQE-1); label: unlabeled competitor
T2 sequence (looked up, limits assumed): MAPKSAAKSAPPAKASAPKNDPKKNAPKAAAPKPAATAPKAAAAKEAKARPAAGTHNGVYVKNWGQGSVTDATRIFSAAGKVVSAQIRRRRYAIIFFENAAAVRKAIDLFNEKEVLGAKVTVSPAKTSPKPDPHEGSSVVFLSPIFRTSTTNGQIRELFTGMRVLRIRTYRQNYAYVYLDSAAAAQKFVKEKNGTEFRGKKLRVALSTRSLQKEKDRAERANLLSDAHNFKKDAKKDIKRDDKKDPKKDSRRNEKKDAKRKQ

“GGCCGAAUGCACCAUAUCCCGUCCGAUUUGUGAAGUUAAGCGGCC [beta arm]”: binds more weakly (P37 (Trypanosoma brucei)); binds more weakly (P34 (Trypanosoma brucei)).
